Laboratory results from patent US20120207760A1, “Compositions and Methods for the Therapy and Diagnosis of Influenza” (THERACLONE SCIENCES, published 2012).

B1: TCN-031 (23K12) (antibody, V domains shown)
VH: EVQLVESGGGLVQPGGSLRISCAASGFTVSSNYMSWVRQAPGKGLEWVSVIYSGGSTYYADSVKGRFSFSRDNSKNTVFLQMNSLRAEDTAVYYCARCLSRMRGYGLDVWGQGTTVTVSS
VL: DIQMTQSPSSLSASVGDRVTITCRTSQSISSYLNWYQQKPGKAPKLLIYAASSLQSGVPSRFSGSGSGTDFTLTISGLQPEDFATYYCQQSYSMPAFGQGTKLEIK
B2: TCN-032 (8I10) (antibody, V domains shown)
VH: QVQLQESGPGLVKPSETLSLTCTVSGSSISNYYWSWIRQSPGKGLEWIGFIYYGGNTKYNPSLKSRVTISQDTSKSQVSLTMSSVTAAESAVYFCARASCSGGYCILDYWGQGTLVTVSS
VL: DIQMTQSPSSLSASVGDRVTITCRASQNIYKYLNWYQQRPGKAPKGLISAASGLQSGVPSRFSGSGSGTDFTLTITSLQPEDFATYYCQQSYSPPLTFGGGTRVEIK

Assays:
[1] = target: T1, M2 variant of A/Hong Kong/1144/1999 (H3N2), expressed on 293 cells (influenza A virus A/Hong Kong/1144/99 …); experiment: flow cytometry on 293 cells transfected with natural M2 variants (FIG. 19b)
T1 chain: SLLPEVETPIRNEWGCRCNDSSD

[2] = target: T2, M2 variant of A/Hong Kong/1180/1999 (H3N2), expressed on 293 cells (influenza A virus A/Hong Kong/1180/99 …); experiment: as above
T2 chain: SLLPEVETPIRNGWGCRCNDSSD

Row | Binder | binding result [1] | binding result [2]
1 | B1 | binds | binds
2 | B2 | binds | binds
